Pooled drug test results. Numbers come from NIAID ChemDB, via PubChem.

Common to all: enzyme or target tests; species: Pneumocystis carinii

Conditions beyond the fields shown may differ between rows. ICn: concentration for n% inhibition. Percent inhibition refers to the dose given; in toxicity tests it is the harm to the cells. An empty or dashed field is not shown.

SMILES,method,protein,read-out,dose,result
Nc1ccc(S(=O)(=O)Nc2ccccn2)cc1,-,DHPS,IC50,-,0.18 µM
c1cc2nc(CCCCc3nc4ccc(C5=NCCN5)cc4[nH]3)[nH]c2cc1C1=NCCN1,-,Topoisomerase I,IC50,-,1.25 µM
Cc1noc(NS(=O)(=O)c2ccc(N)cc2)c1C,-,DHPS,inhibition,0.05 µM,39.2%
CCc1c(CNc2ccc(C(=O)NC(CC(=O)O)C(=O)O)cc2)ccc2nc(N)nc(N)c12,-,DHFR,IC50,-,0.0097 µM
Nc1ccc(S(=O)(=O)Nc2ccc(Cl)nn2)cc1,-,DHPS,inhibition,0.05 µM,29.5%
Nc1nc(N)c2c(ccc3ccc(Cl)cc32)n1,-,DHFR,IC50,-,0.12 µM
Cc1cc(N(C(=O)COC(C)C)S(=O)(=O)c2ccc(N)cc2)no1,-,DHPS,IC50,-,0.023 µM
CC(=O)Nc1ccc(NCc2cnc3nc(N)nc(N)c3n2)cc1,-,DHFR,IC50,-,7.1 µM
Nc1ccc(S(=O)(=O)c2ccc(N)cc2)cc1,HPLC,Oxidosqualene cyclase,IC50,-,215 µM
N=C(N)c1ccc2nc(/C=C/c3nc4ccc(C(=N)N)cc4[nH]3)[nH]c2c1,-,Topoisomerase II,IC50,-,1.25 µM
COc1cc(NS(=O)(=O)c2ccc(N)cc2)c2ncccc2c1,-,DHPS,IC50,-,0.38 µM
CN(Cc1cnc2nc(N)nc(N)c2n1)c1ccc(C(=O)O)cc1,-,DHFR,IC50,-,0.94 µM
N=C(N)c1ccc(OCCCCCOc2ccc(C(=N)N)cc2)cc1,-,Dihydroorotate dehydrogenase,inhibition,10 µM,0%
Nc1ccc(S(=O)(=O)Nc2ncccn2)cc1,HPLC,Oxidosqualene cyclase,IC50,-,>500 µM
COc1ccc2c(c1)CCc1nc(N)nc(N)c1-2,-,DHFR,IC50,-,6.2 µM
N=C(N)c1ccc2nc(CCc3nc4ccc(C(=N)N)cc4[nH]3)[nH]c2c1,-,Topoisomerase II,IC50,-,10 µM
Nc1ccc(S(=O)(=O)N[n+]2ccccc2)cc1,-,DHPS,IC50,-,>10 µM
CC1(C)N=C(N)N=C(N)N1c1cccc(CCCCOc2ccccc2)c1,-,DHFR,IC50,-,0.27 µM

2 of the rows above, restated:

SMILES | method | protein | read-out | dose | result
Nc1ccc(S(=O)(=O)Nc2ccccn2)cc1 | - | DHPS | IC50 | - | 0.18 µM
Cc1noc(NS(=O)(=O)c2ccc(N)cc2)c1C | - | DHPS | inhibition | 0.05 µM | 39.2%